This is an account of results in article PMC10683372.

Like-named read-outs stand apart in the source and are kept apart here.

In assay [1] the target is [F]‐hirugen, N^α‐fluoresceinated hirugen. The experiment in a line: other fluorescence titration; thrombin (S195A by the methods) or its hirudin complex added to the fluoresceinated peptide (60 nM); excitation 492 nm, emission 516 nm; TBS, 25°C.
For assay [2] the target is unchanged. Described as above. The source holds these as a separate data set.

Consider “catalytically inactive αT S195A mutant (enzyme)”, for which the Kd in assay [1] came out at 0.068 µM; in assay [2], 0.065 µM.
